Measurements reported in PubChem BioAssay AID1259414 (Drosophila RNAi Screening Center, 2018)

- Assay: 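Fly genes that alter Wolbachia amount inside host cells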 (primary screen)
- Cell system: Drosophila JW18 cells infected with Wolbachia
- Reagents: long dsRNA against Drosophila genes, 0.25 µg dsRNA per well of a 384-well plate
- Time to read-out: 5 days
- Treatment: cells persistently infected with Wolbachia before knock-down; no added drug
- Measurement: 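Automated imaging of bacterial rRNA staining divided by host cell count, reported as plate-normalised robust z-score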
- Direction: Wolbachia per cell robust z: higher = more Wolbachia per host cell than the plate typical
- Rule for the call: 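Hit when robust z is 1.5 or more, or -1.5 or less, in at least two of three replicates; excludes dsRNAs with several or no targets, genes not expressed in JW18 and well A1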
The deposit covers about 24,000 reagents; shown is a random part of those with a known target gene and a result. Of all reagents, about 1,210 (5%) got an active call. 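Inactive calls also include excluded dsRNAs with several or no targets, genes unexpressed in JW18, and well A1, regardless of score.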 Names joined by + are all predicted targets of the reagent. No sequences are given here.

no.	Gene	DRSC id	Wolbachia per cell robust z, rep 1	Wolbachia per cell robust z, rep 2	Wolbachia per cell robust z, rep 3	outcome
1	Dpm1	DRSC02018	0.334	0.52	0.531	inactive
2	MFS3	DRSC00664	0.659	-5.66	0.987	inactive
3	MFS3	DRSC28601	0.0266	0.286	-1.07	inactive
4	Oli	DRSC02866	1.31	0.0585	-0.104	inactive
5	Oli	DRSC26246	-0.766	0.105	-0.978	inactive
6	Ir48c	DRSC06154	-1.37	-0.825	-1.16	inactive
7	RpL18A	DRSC07538	1.01	1.57	1.35	inactive
8	CG7857	DRSC10925	-0.0675	0.521	1.03	inactive
9	CG7857	DRSC29862	-0.147	0.102	-1.09	inactive
10	CG4328	DRSC23146	1.5	1.11	0.309	inactive
11	CG4328	DRSC28606	1.39	-0.36	-0.473	inactive
12	MFS15	DRSC06523	1.01	0.766	1.24	inactive
13	MFS15	DRSC28274	1.62	1.18	1	inactive
14	Vps37B	DRSC12165	0.542	0.488	0.0761	inactive
15	ste24a	DRSC07314	-0.545	0.232	0.34	inactive
16	ste24a	DRSC26491	-0.871	-0.739	-0.222	inactive
17	maf-S	DRSC07348	0.581	0.596	-1.44	inactive
18	Tim9b + Pstk + CG14210	DRSC29021	0.347	0.793	0.675	inactive
19	CG3552	DRSC10370	-0.937	-5.42	-1.97	active
20	DptB	DRSC06001	0.682	0.732	0.717	inactive
21	Gr92a	DRSC21631	0.258	-0.725	-0.808	inactive
22	AsnS	DRSC11468	-3.4	-0.336	0.211	inactive
23	Keap1	DRSC15528	-1.1	-0.254	1.14	inactive
24	Keap1	DRSC29209	1.4	0.644	0.555	inactive
25	CG14720	DRSC14942	-0.934	0.245	-0.0213	inactive
26	CG10674	DRSC09775	0.509	0.562	-1.03	inactive
27	mon2	DRSC03112	0.264	-0.357	0.904	inactive
28	CG8060	DRSC07064	-0.428	-0.507	-1.89	inactive
29	Rpp25	DRSC05002	-0.666	0.159	-0.267	inactive
30	Fak	DRSC07426	0.534	-0.673	1.01	inactive
31	Fak	DRSC26626	0.223	0.772	2.7	inactive
32	BBS8	DRSC00360	-0.308	-0.17	-0.609	inactive
33	BBS8	DRSC27758	-0.142	-0.788	-11.9	inactive
34	JhI-21	DRSC02161	-0.561	1.07	1.17	inactive
35	JhI-21	DRSC29181	-0.427	0.37	1.23	inactive
36	wnd	DRSC11046	0.191	-0.276	0.768	inactive
37	wnd	DRSC21373	-0.999	0.0856	-0.775	inactive
38	CG5984	DRSC15930	0.197	0.676	0.263	inactive
39	CG14095	DRSC10098	-1.75	-0.792	-0.644	inactive
40	sax	DRSC07675	0.514	-0.0357	-3.44	inactive
41	sax	DRSC26844	0.182	-0.391	-0.895	inactive
42	CG14450	DRSC11707	0.223	0.646	1.73	inactive
43	CG14450	DRSC29442	-0.754	-2.65	-1.63	active
44	CG4440	DRSC02747	-0.225	-0.64	-0.634	inactive
45	CG4440	DRSC28042	0.646	-1.79	-2.1	inactive
46	CG46339	DRSC14136	1.34	0.565	-0.558	inactive
47	CG46339	DRSC24047	0.754	-0.0551	0.749	inactive
48	Cpr78Cb	DRSC11847	0.698	-3.07	1.59	inactive
49	Cpr78Cb	DRSC26957	0.909	-0.355	1.39	inactive
50	CG4686	DRSC15622	-0.27	-1.47	-0.0636	inactive
51	CG9389	DRSC11857	-1.34	1.08	0.43	inactive
52	su(Hw)	DRSC17074	-3.61	-6.49	-4.88	active
53	p38b	DRSC03586	0.3	0.00808	0.268	inactive
54	CG32945	DRSC12014	-0.447	-0.923	-0.862	inactive
55	dpr14	DRSC17767	0.0464	-0.539	-0.314	inactive
56	dpr14	DRSC26488	-0.166	0.586	0.468	inactive
57	ND-51L2	DRSC07080	-3.68	-0.678	-0.0644	inactive
58	CG14464	DRSC07760	0.837	-1.96	0.711	inactive
59	Ag5r2	DRSC19328	-0.282	-0.323	0.122	inactive
60	Atg6	DRSC15798	0.542	0.201	-1.98	inactive
61	Atg6	DRSC24442	-0.739	1.51	2.52	active
62	Mtch	DRSC08679	-0.0662	-0.717	0.688	inactive
63	Kdm5	DRSC03133	1.18	1.29	0.0778	inactive
64	Kdm5	DRSC29570	1.35	1.1	0.966	inactive
65	CG6503	DRSC16056	1.09	-0.977	-0.474	inactive
66	CG6503	DRSC29619	0.672	-0.854	0.164	inactive
67	santa-maria	DRSC00994	1.29	0.187	1.14	inactive
68	santa-maria	DRSC02180	-7.37	-3.34	-0.0311	inactive
